The experiment deals with Staphylococcus aureus S13E. The conditions noted are these: agar dilution, M43A phosphate salt, vancomycin free base. (In agar dilution, organisms are placed on agar that contains the substance at set levels.)

1 compound from patent US4548925A, “Antibiotic M43A, pharmaceutical composition and method of use” (Eli Lilly and Company, priority 1984, dated 1985) can be followed below.

For orientation: MIC means the smallest concentration in the dilution series that meets the test's criterion for growth inhibition.

Regarding `CN[C@H](CC(C)C)C(=O)N[C@H]1C(=O)N[C@@H](CC(N)=O)C(=O)N[C@H]2C(=O)N[C@H]3C(=O)N[C@H](C(=O)N[C@H](C(=O)O)c4cc(O)cc(O)c4-c4cc3ccc4O)[C@H](O)c3ccc(c(Cl)c3)Oc3cc2cc(c3O[C@@H]2O[C@H](CO)[C@@H](O)[C@H](O)[C@H]2O[C@H]2C[C@](C)(N)[C@H](O)[C@H](C)O2)Oc2ccc(cc2Cl)[C@H]1O` [Vancomycin], the MIC stood at 1 mg/L.
